Pooled drug test results. Numbers come from NIAID ChemDB, via PubChem.

Common to all: whole-cell or culture tests; agent: Mycobacterium tuberculosis

ECn is the concentration giving n% inhibition of infection, replication or growth. Neighbouring rows are from separate reports. A number after MIC or MFC names an inhibition level or a share of isolates. MIC bound comes from a single tested concentration. An empty or dashed field is not shown. Percent inhibition refers to the dose given; in toxicity tests it is the harm to the cells.

smiles,cell line,dose,read by,setting,endpoint,strain,value
OCc1ccccc1Sc1ccccc1CNCCNCCc1ccc(F)cc1,,,,,MIC,,50 µM
COc1ccc2ncc(COC(C)=O)c(COC(C)=O)c2c1,,12.5 µg/mL,BACTEC,,inhibition,H37Rv,52%
Oc1ccc(CCNCCNCc2ccco2)cc1,,,,,MIC,,50 µM
CCOC1CC2CC3C4CCC5=CC(=O)CCC5(C)C4CCC3(C)C2=C(C)O1,,,BACTEC,,MIC bound,H37Rv,>12.5 µg/mL
CC(NCCN[C@@H](C)C1CCCCC1)C12CC3CC(CC(C3)C1)C2,,,,,MIC,,50 µM
Cc1cccc(CSc2ncccn2)c1,,,,,MIC,H37Ra,>12.8 µg/mL
CC[C@@H](CO)NCCN[C@@H](CC)CO,,,broth dilution / resazurin,,MIC,MDR18,16 µg/mL
CCCCn1c(Cc2ccccc2)nc2c1C(=O)c1ccccc1C2=O,,,resazurin,,MIC bound,H37Rv,>6.25 µg/mL
C/C(=N\NC(=O)c1ccncc1)c1ccccc1F,Macrophages,,colony count,inside macrophages,EC50,Erdman,<0.081 µg/mL
NNC(=O)c1ccncc1,,,,,MIC,PR455,0.16 µg/mL
CC1(C)[C@H]2CC[C@@H](CNCCNCC(c3ccccc3)c3ccccc3)[C@@H]1C2,,,,,MIC,,3.13 µM
c1ccc(CCCCNCCNCCc2ccccc2)cc1,,,,,MIC,,50 µM
N#CCCC#N,,,,,MIC,H37Rv,>100 µg/mL
CCOC(=O)Nc1cc(NC(c2ccccc2)c2ccccc2)c([N+](=O)[O-])c(NCC(=O)c2ccc(Cl)cc2)n1,,12.5 µg/mL,,,inhibition,H37Rv,0%
CCCCCCCCCCCNCCN[C@H]1C[C@H]2C[C@@H]([C@@H]1C)C2(C)C,,,,,MIC,,50 µM
NC(=O)C(=Cn1c(=S)[nH]c2ccc([N+](=O)[O-])cc21)C(N)=O,,,resazurin,,MIC bound,H37Rv,>6.25 µg/mL
C/C(=N\NC(=O)c1ccncc1)c1ccccc1,,,,,MIC,H37Rv (rifampin-resistant),2 µg/mL
CC(=O)N=C1N(/C=C2\C(=O)Oc3ccccc3C2=O)C(=O)/C(=C/c2ccc(OC(C)=O)cc2)N1C,,,BACTEC,,MIC bound,H37Rv,>12.5 µg/mL
CC(CNCCNC(C)c1cccc2ccccc12)c1ccccc1,,,,,MIC,,25 µM
Cc1cc(O)cc(C(=O)O)c1,,,,,MIC,H37Rv,50 µg/mL
O=C(Nc1ccc(Nc2ccncc2)cc1)c1ccc(Nc2ccnc3ccc([N+](=O)[O-])cc23)cc1[N+](=O)[O-],,,BACTEC,,MIC bound,H37Rv,≤12.5 µg/mL
Cc1ccc(C(=O)c2ccccc2C(=O)O)cc1C(=O)O,,,,,MIC,H37Rv,100 µg/mL
Clc1ccc(COC(Cn2ccnc2)c2ccc(Cl)cc2Cl)c(Cl)c1,,,resazurin,,MIC bound,H37Rv,<6.25 µg/mL
C[C@@H]1[C@H]2C[C@@H](C[C@H]1NCCNCC(c1ccccc1)c1ccccc1)C2(C)C,,,,,MIC,,6.25 µM
Nc1cc2c(cc1Br)C(=O)c1ccccc1C2=O,,,,,MIC,H37Rv,>100 µg/mL
CC[C@H]1OC(=O)[C@H](C)[C@@H](O[C@H]2C[C@@](C)(OC)[C@@H](O)[C@H](C)O2)[C@H](C)[C@@H](O[C@@H]2O[C@H](C)C[C@H](N(C)C)[C@H]2O)[C@](C)(OC)C[C@@H](C)C(=O)[C@H](C)[C@@H](O)[C@]1(C)O,,,,,MIC,29197,>4 µg/mL
O=C(N/N=C/c1cccc(F)c1)c1ccncc1,Macrophages,,colony count,inside macrophages,EC50,Erdman,<0.011 µg/mL
Clc1nc(Sc2ccccn2)c2[nH]cnc2n1,,,,,MIC,H37Ra,>12.8 µg/mL
CC1=C(C(=O)O)N2C(=O)C(NC(=O)C(c3ccc(O)cc3)N3CSC(=S)N(C(C)C)C3)C2SC1,,12.5 µg/mL,BACTEC,,inhibition,H37Rv,20%
CCCCC(CC)CN1CN(CC(CC)CCCC)CC(C)(NCCNCCc2ccc(O)cc2)C1,,,,,MIC,,25 µM
C/C(=N\NC(=O)c1ccncc1)c1ccc(F)cc1,,,,,MIC,Ethionamide-resistant,>1.6 µg/mL
N#Cc1cc2cc3c4c(c2oc1=O)CCCN4CCC3,,12.5 µg/mL,BACTEC,,inhibition,H37Rv,4%
CCOC(=O)c1csc(CCCCC(=O)O)c1NC(=O)c1ccccc1,,,,,MIC,H37Rv,>100 µg/mL
C[C@H]1COc2c(N3CCN(C)CC3)c(F)cc3c(=O)c(C(=O)O)cn1c23,,,,,MIC,ATCC 35822,0.25 µg/mL
Cc1ccc(Sc2nc(Cl)nc3nc[nH]c23)cc1,,,,,MIC,H37Ra,>12.8 µg/mL
CCOC(=O)Nc1cc2ncc(-c3ccccc3)nc2c(NC(C)=O)n1,,,,,EC50,H37Rv,>12.5 µg/mL
CCCCC(O)CN(/N=C/c1ccc([N+](=O)[O-])o1)C(N)=O,,,BACTEC,,MIC bound,H37Rv,>12.5 µg/mL
Cc1c(Cl)ccc(C(=O)c2ccccc2C(=O)O)c1Cl,,,,,MIC,H37Rv,>100 µg/mL
COc1cc2oc(-c3ccc(O)cc3O)c(CC=C(C)C)c(=O)c2c(O)c1/C=C/C(C)C,,,,,MIC,KM-R,>12.5 µg/mL
Cc1cc(C)nc(-c2ccc([N+](=O)[O-])cc2)n1,,,,,MIC,H37Rv,>100 µg/mL
CCCCCNCCNCCC1=CCCCC1,,,,,MIC,,25 µM
Nc1cc2ccccc2c2ccccc12,,,,,MIC,H37Rv,6.25 µg/mL
C[C@H]1C[C@H](N)CN1c1cc2c(cc1F)c(=O)c(C(=O)O)cn2-c1ccc(F)cc1F,,,,,MIC,ATCC 35823,4 µg/mL
CCCCCCCCCCCNCCNCC(c1ccccc1)c1ccccc1,,,,,MIC,,12.5 µM
O=C(NNCc1ccccc1F)c1ccncc1,,,,,MIC,Isoniazid-resistant,>6.4 µg/mL
C[C@@H]1CN(c2c(F)c(N)c3c(=O)c(C(=O)O)cn(C4CC4)c3c2F)C[C@H](C)N1,,,,,MIC90,DRUG-SUS,0.06 µg/mL
CCOC(=O)c1ccc(N)c(N)c1,,,,,MIC,H37Rv,>100 µg/mL
Cl.FC(F)(F)C1(C(F)(F)F)N=CC=CN1,,12.8 µg/mL,BACTEC,,inhibition,H37Rv,2%
COc1ccc(CSc2ncnc3nc[nH]c23)cc1,,6.25 µg/mL,,,inhibition,H37Rv,26%
O=C(Nc1ccc(Br)cc1)c1cnccn1,,,,,MIC,PAS-R,>12.5 µg/mL
Nc1ncnc(N)n1,,,,,MIC,H37Rv,>100 µg/mL
CO[C@H]1/C=C/O[C@@]2(C)Oc3c(C)c(O)c4c(O)c(c5c(c4c3C2=O)NC2(CCN(CC(C)C)CC2)N=5)=NC(=O)/C(C)=C\C=C\[C@H](C)[C@H](O)[C@@H](C)[C@@H](O)[C@@H](C)[C@H](OC(C)=O)[C@@H]1C,,,,,MIC,Strain 119 (H526Y),32 µg/mL
CCOC(=O)Nc1cc(NCCc2ccc(S(=O)(=O)N(CC)CC)cc2)c2nccnc2n1,,,,,EC50,H37Rv,>12.5 µg/mL
Cc1ccccc1Sc1ncnc2nc[nH]c12,,,,,MIC90,H37Rv,>12.5 µg/mL
CC[C@H]1OC(=O)[C@H](C)[C@@H](O[C@H]2C[C@@](C)(OC)[C@@H](O)[C@H](C)O2)[C@H](C)[C@@H](O[C@@H]2O[C@H](C)C[C@H](N(C)C)[C@H]2O)[C@](C)(O)C[C@@H](C)CN(C)[C@H](C)[C@@H](O)[C@]1(C)O,,,,,MBC,ATCC 35830,>8 µg/mL
CO[C@@]12[C@H](COC(N)=O)C3=C(C(=O)C(C)=C(N)C3=O)N1C[C@H]1[C@@H]2N1C,,,,,MIC,ETA-R,1.6 µg/mL
NCCc1cnc[nH]1,,,,,MIC,H37Rv,>100 µg/mL
CN1N=C(N)c2cn([C@@H]3O[C@H](COP(=O)(O)O)[C@@H](O)[C@H]3O)c3ncnc1c23,,12.5 µg/mL,BACTEC,,inhibition,H37Rv,48%
O=C1CC(c2ccccc2)Oc2c(I)cccc21,,12.5 µg/mL,,,inhibition,H37Rv,5%
CC(=O)NNc1nc(C)c(C(=O)NNC(=O)C(=O)Nc2c([N+](=O)[O-])ccc(C)c2C)s1,,,resazurin,,MIC bound,H37Rv,>6.25 µg/mL
COc1cccc(CSc2nc(=O)[nH]c3nc[nH]c23)c1,,,,,MIC,H37Ra,16 µg/mL
CCCCC(CC)CN1CN(CC(CC)CCCC)CC(C)(NCCNCc2ccc(OC)c(OC)c2)C1,,,,,MIC,,50 µM
c1ccc(CCCCNCCNCc2cccc3ccccc23)cc1,,,,,MIC,,25 µM
CC(CNCCNC(C)c1cccc2ccccc12)c1ccccc1,,,,,MIC,,25 µM
Cc1ccccc1C1N=C2Oc3ccccc3C=C2C(=O)N1,,,BACTEC,,MIC bound,H37Rv,>12.5 µg/mL
CCOC(=O)Nc1cc2[nH]c(-c3cc(OC)c(OC)cc3OC)nc2c(N(CCc2ccccc2)Cc2ccccc2)n1,,,,,EC50,H37Rv,<12.5 µg/mL
CC[C@H]1OC(=O)[C@H](C)[C@@H](O[C@H]2C[C@@](C)(OC)[C@@H](O)[C@H](C)O2)[C@H](C)[C@@H](O[C@@H]2O[C@H](C)C[C@H](N(C)C)[C@H]2O)[C@](C)(OC)C[C@@H](C)C(=O)[C@H](C)[C@@H](O)[C@]1(C)O,,,,,MBC,ATCC 35823,>8 µg/mL
COc1ccc(Sc2ncccn2)cc1OC,,,,,MIC,H37Ra,>12.8 µg/mL
C(=C\c1ccnc(/C=C/c2ccccc2)c1)/c1ccccc1,,,,,MIC,H37Rv,>100 µg/mL
c1ccc(CCCCNCCNC2CCCCCCC2)cc1,,,,,MIC,,25 µM
COc1ccc(Sc2ncnc3nc[nH]c23)cc1,,,,,MIC,H37Ra,>12.8 µg/mL
COc1ccc(CCc2cc(OC)c3ccccc3n2)cc1OC,,,,,MIC,MT9,50 µg/mL
OCCCc1ccccn1,,,,,MIC,H37Rv,>100 µg/mL
COc1ccc(/C=C/C(=O)c2cc(I)ccc2O)cc1,,,,,EC50,,>12.5 µg/mL
NCC(=O)c1ccc2oc3ccccc3c2c1,,12.5 µg/mL,BACTEC,,inhibition,H37Rv,64%
CCCCCc1cc(OC)c2ccccc2n1,,,,,MIC,MT10,50 µg/mL
COc1c2c(cc3c1c(=O)c1ccccc1n3C)OCO2,,,BACTEC,,MIC,H37Rv,≥12.5 µg/mL
COc1ccccc1CCNCCNCCc1ccccc1Cl,,,,,MIC,,50 µM
N#Cc1ccccc1N,,,,,MIC,H37Rv,>100 µg/mL
O=C(NCC(=O)N1CCCC1)N/N=C/c1ccccc1O,,12.5 µg/mL,BACTEC,,inhibition,H37Rv,0%
O=C1c2c(O)cc(S(=O)(=O)[O-])c(NCS(=O)(=O)[O-])c2C(=O)c2c(O)cc(S(=O)(=O)[O-])c(NCS(=O)(=O)[O-])c21.[Na+].[Na+].[Na+].[Na+],,,,,MIC,H37Rv,>100 µg/mL
Nc1ccc(C(=O)/C=C/c2cccnc2N)cc1,,12.5 µg/mL,,,inhibition,,0%
CC(O)c1ccccc1,,,,,MIC,H37Rv,>100 µg/mL
NCC[C@H](O)C(=O)N[C@@H]1C[C@H](N)[C@@H](O[C@H]2O[C@H](CN)[C@@H](O)[C@H](O)[C@H]2O)[C@H](O)[C@H]1O[C@H]1O[C@H](CO)[C@@H](O)[C@H](N)[C@H]1O,,,,,MIC,TN4728 (BN),>256 µg/mL
CN[C@@H]1[C@H](O[C@H]2[C@H](O[C@H]3[C@H](O)[C@@H](O)[C@H](N=C(N)N)[C@@H](O)[C@@H]3N=C(N)N)O[C@@H](C)[C@]2(O)C=O)O[C@@H](CO)[C@H](O)[C@H]1O,,,,,MIC,MC8,<2 µg/mL
C=CCNc1nc(N)nc(OC)n1,,,,,MIC,H37Rv,>100 µg/mL
O=C1CC(c2ccccc2)Oc2ccc(Br)cc21,,,,,EC50,,>12.5 µg/mL
Nc1cccc(NC(C(O)C(O)C(O)C(O)CO)S(=O)(=O)[O-])n1.[Na+],,,,,MIC,H37Rv,>100 µg/mL
CCOC(=O)Nc1cc(NC/C(=N/O)c2ccc(C(F)(F)F)cc2)c([N+](=O)[O-])c(N)n1,,,,,EC50,H37Rv,>12.5 µg/mL
CC1=C(C)C(=O)C(C)=C(C)C1=O,,,,,MIC,H37Rv,>100 µg/mL
N#C[B][n+]1ccc(C(=O)NNCc2ccccc2F)cc1,,,,,MIC,H37Rv,3.13 µg/mL
CC1=NNC(=O)C1[N+](=O)[O-],,,,,MIC,H37Rv,>100 µg/mL
CCCCC(CC)CN1CN(CC(CC)CCCC)CC(C)(NCCNCc2ccc(C(F)(F)F)cc2)C1,,,,,MIC,,50 µM

For reference, 8 entries again:

N#Cc1cc2cc3c4c(c2oc1=O)CCCN4CCC3 ; dose: 12.5 µg/mL ; read by: BACTEC ; endpoint: inhibition ; strain: H37Rv ; value: 4%
NCC[C@H](O)C(=O)N[C@@H]1C[C@H](N)[C@@H](O[C@H]2O[C@H](CN)[C@@H](O)[C@H](O)[C@H]2O)[C@H](O)[C@H]1O[C@H]1O[C@H](CO)[C@@H](O)[C@H](N)[C@H]1O ; endpoint: MIC ; strain: TN4728 (BN) ; value: >256 µg/mL
CC1=C(C(=O)O)N2C(=O)C(NC(=O)C(c3ccc(O)cc3)N3CSC(=S)N(C(C)C)C3)C2SC1 ; dose: 12.5 µg/mL ; read by: BACTEC ; endpoint: inhibition ; strain: H37Rv ; value: 20%
N#C[B][n+]1ccc(C(=O)NNCc2ccccc2F)cc1 ; endpoint: MIC ; strain: H37Rv ; value: 3.13 µg/mL
O=C(NCC(=O)N1CCCC1)N/N=C/c1ccccc1O ; dose: 12.5 µg/mL ; read by: BACTEC ; endpoint: inhibition ; strain: H37Rv ; value: 0%
O=C1c2c(O)cc(S(=O)(=O)[O-])c(NCS(=O)(=O)[O-])c2C(=O)c2c(O)cc(S(=O)(=O)[O-])c(NCS(=O)(=O)[O-])c21.[Na+].[Na+].[Na+].[Na+] ; endpoint: MIC ; strain: H37Rv ; value: >100 µg/mL
Nc1ccc(C(=O)/C=C/c2cccnc2N)cc1 ; dose: 12.5 µg/mL ; endpoint: inhibition ; value: 0%
NCCc1cnc[nH]1 ; endpoint: MIC ; strain: H37Rv ; value: >100 µg/mL